Anti-infective test results gathered from many reports (values: NIAID ChemDB through PubChem).

Shared fields: tests on isolated targets

An empty or dashed field is not shown. Inhibition is in % at the dose shown (toxicity tests: loss of growth or viability). a–b is a range or a potency band. Lines come from different laboratories, so protocols vary. ICn is the concentration giving n% inhibition.

smiles,target,method,read-out,dose,strain or isolate,species,result
CCC[C@H](NC(=O)[C@H](CC1CCCCC1)NC(=O)[C@@H](NC(=O)[C@H](CC(C)C)NC(=O)[C@@H](CCC(=O)O)NC(=O)[C@H](CCC(=O)O)NC(=O)CCC(=O)O)[C@@H](C)CC)C(=O)NS(=O)(=O)c1ccccc1,HCV NS3 protease,-,Ki,-,-,Hepatitis C virus,0.0136 µM
C=CC1CC1(NC(=O)[C@@H]1C[C@@H](OC(=O)Nc2cc(C)ccc2-n2cccc2)CN1C(=O)[C@@H](NC(=O)OC(C)(C)C)C(C)(C)C)C(=O)NS(=O)(=O)C1CC1,NS3/NS4A protease,-,IC50,-,BMS/H77C/J416S,Hepatitis C virus,<0.1 µM
Nc1nc2c(ncn2[C@@H]2O[C@H](COP(=O)(O)OP(=O)(O)OP(=O)(O)O)[C@@H](O)[C@H]2O)c(=O)[nH]1,NS5B delta .21,-,IC50,-,-,Hepatitis C virus,7.9 µM
C=CC1CC1(NC(=O)[C@@H]1C[C@@H](OC(=O)Nc2ccccc2Oc2ccccc2)CN1C(=O)[C@@H](NC(=O)OC(C)(C)C)C(C)(C)C)C(=O)NS(=O)(=O)C1CC1,NS3/NS4A protease,-,IC50,-,BMS/H77C/J416S,Hepatitis C virus,<0.1 µM
Nc1nc2c(ccn2[C@@H]2O[C@H](COP(=O)(O)OP(=O)(O)OP(=O)(O)O)[C@@H](O)[C@@H]2O)c(=O)[nH]1,NS5B delta .21,-,IC50,-,-,Hepatitis C virus,6.6 µM
Cc1cnc2c(C(=O)O)cnn2c1C1CCCCC1,RNA-dependent RNA polymerase,-,IC50,-,-,Hepatitis C virus,>10 µM
C=CC1CC1(NC(=O)[C@@H]1C[C@@H](OC(=O)Nc2cc(Cl)ccc2C)CN1C(=O)[C@@H](NC(=O)OC(C)(C)C)C(C)(C)C)C(=O)NS(=O)(=O)C1CC1,NS3/NS4A protease,-,IC50,-,BMS/H77C/J416S,Hepatitis C virus,<0.1 µM
CS(=O)(=O)c1ccc(Oc2ccc(-c3cnc4c(-c5nn[nH]n5)cnn4c3C3CCCCC3)cc2)cc1,RNA-dependent RNA polymerase,-,IC50,-,-,Hepatitis C virus,1–10 µM
COc1ccc2c(O[C@@H]3C[C@H]4C(=O)C[C@]5(P(=O)(O)Cc6c(F)cccc6F)C[C@H]5CCCCCCC[C@H](CC(=O)OC5CCCC5)C(=O)N4C3)cc(-c3csc(NC(C)C)n3)nc2c1Cl,Nonstructural protein 3 protease,fluorescence,Ki,-,JFH-1 (gt 2a),Hepatitis C virus,0.0038 µM
C=CC1CC1(NC(=O)[C@@H]1C[C@@H](OC(=O)NCc2cccc(F)c2)CN1C(=O)[C@@H](NC(=O)OC(C)(C)C)C(C)(C)C)C(=O)NS(=O)(=O)C1CC1,NS3/NS4A protease,-,IC50,-,BMS/H77C/J416S,Hepatitis C virus,0.1–1 µM
O=c1c(O[C@@H]2OC[C@H](O)[C@H](O)[C@H]2O)c(-c2ccc(O)c(O)c2)oc2cc(O)cc(O)c12,Nonstructural protein 3 protease,-,IC50,-,-,Hepatitis C virus,100 µM
C=CC1CC1(NC(=O)[C@@H]1C[C@@H](OC(=O)N[C@H](C(=O)OC)[C@@H](C)CC)CN1C(=O)[C@@H](NC(=O)OC(C)(C)C)C(C)(C)C)C(=O)O,NS3/NS4A protease,-,IC50,-,BMS/H77C/J416S,Hepatitis C virus,1–10 µM
O=C(c1ccccc1)N1CCC2(CCCN(c3ncc(-c4ccccc4)c(-c4ccc(Cl)cc4)n3)C2)CC1,Nonstructural protein 4B,radioligand binding / binding,IC50,-,-,Hepatitis C virus,0.0458 µM
CCCCCCCCCCCCCC1=C(O)C(=O)C=C(O)C1=O,Nonstructural protein 3 protease,-,inhibition,100 µM,-,Hepatitis C virus,100%
CC[C@H](C)[C@H](NC(=O)[C@H](CC(C)C)NC(=O)[C@@H](CCC(=O)O)NC(=O)[C@H](CCC(=O)O)NC(=O)CCC(=O)O)C(=O)N[C@@H](CC1CCCCC1)C(=O)NC1(C(=O)c2nn[nH]n2)CC1,HCV NS3 protease,-,Ki,-,-,Hepatitis C virus,1.9 µM
OCc1nnc(-c2ccc(N3CCC(Oc4ccccc4C(F)(F)F)CC3)nn2)o1,Nonstructural protein 3,fluorescence,IC50,-,-,Hepatitis C virus,>100 µM
O=C(O)c1cc2nc(-c3cccc(F)c3)c(C3CCCCC3)c(=O)n2[nH]1,RNA-dependent RNA polymerase,-,IC50,-,-,Hepatitis C virus,1–10 µM
C=CC1CC1(NC(=O)[C@@H]1C[C@@H](OC(=O)Nc2nc(Cl)c(Cl)nc2C(=O)OC)CN1C(=O)[C@@H](NC(=O)OC(C)(C)C)C(C)(C)C)C(=O)NS(=O)(=O)C1CC1,NS3/NS4A protease,-,IC50,-,BMS/H77C/J416S,Hepatitis C virus,<0.1 µM
O=C(/C=C/c1ccc(O)c(O)c1)O[C@H]1[C@H](O)C[C@](O)(C(=O)O)C[C@H]1OC(=O)/C=C/c1ccc(O)c(O)c1,HBeAg,ELISA,inhibition,50 µg/mL,HepG 2.2.15,Hepatitis B virus,15.02%
C=CC1CC1(NC(=O)[C@@H]1C[C@@H](OC(=O)Nc2cccc(C)c2C)CN1C(=O)[C@@H](NC(=O)OC(C)(C)C)C(C)(C)C)C(=O)NS(=O)(=O)C1CC1,NS3/NS4A protease,-,IC50,-,BMS/H77C/J416S,Hepatitis C virus,<0.1 µM
O=C(O)c1cc2nc(-c3ccc(Cl)cc3Cl)cc(-c3ccc(Cl)cc3Cl)n2n1,RNA-dependent RNA polymerase,-,IC50,-,-,Hepatitis C virus,1–10 µM
CC[C@H](C)[C@H](NC(=O)[C@H](CC(C)C)NC(=O)[C@@H](CCC(=O)O)NC(=O)[C@H](CCC(=O)O)NC(=O)CCC(=O)O)C(=O)N[C@@H](CC1CCCCC1)C(=O)N[C@@H](CS)C(=O)O,HCV NS3 protease,-,Ki,-,-,Hepatitis C virus,0.028 µM
Nc1ncnc2c1ccn2[C@@H]1O[C@H](COP(=O)(O)OP(=O)(O)OP(=O)(O)O)C[C@H]1O,NS5B delta .21,-,IC50,-,-,Hepatitis C virus,12 µM
C=CC1CC1(NC(=O)[C@@H]1C[C@@H](OC(=O)N2CCc3ccccc32)CN1C(=O)[C@@H](NC(=O)OC(C)(C)C)C(C)(C)C)C(=O)NS(=O)(=O)C1CC1,NS3/NS4A protease,-,IC50,-,BMS/H77C/J416S,Hepatitis C virus,<0.1 µM
CC1O[C@@H](Oc2c(-c3ccc(O)c(O)c3)oc3cc(O)cc(O)c3c2=O)[C@H](O)[C@H](O)[C@H]1C,Nonstructural protein 3 protease,-,inhibition,100 µM,-,Hepatitis C virus,45.3%
O=C(CCCCCCCCCCC(=O)Nc1ccc(-c2nc3ccccc3[nH]2)cc1)Nc1ccc(-c2nc3ccccc3[nH]2)cc1,Nonstructural protein 3 NTPase/helicase,-,IC50,-,-,Hepatitis C virus,0.7 µM
O=C(C1CCCC1)N1CCC2(CCCN(c3ncc(-c4ccccc4)c(-c4ccc(Cl)cc4)n3)C2)CC1,Nonstructural protein 4B,radioligand binding / binding,IC50,-,-,Hepatitis C virus,0.061 µM
O=C(NS(=O)(=O)Cc1ccccc1)c1cc2nc(-c3ccco3)c(C3CCCCC3)c(=O)n2[nH]1,RNA-dependent RNA polymerase,-,IC50,-,-,Hepatitis C virus,<1 µM
Nc1ccn([C@H]2CS[C@@H](COP(=O)(O)OP(=O)(O)OP(=O)(O)O)O2)c(=O)n1,DNA polymerase,-,IC50,-,WILD TYPE,Hepatitis B virus,0.0075 µM
Nc1nc2c(ncn2[C@@H]2O[C@H](COP(=O)(O)OP(=O)(O)OP(=O)(O)O)C[C@H]2O)c(=O)[nH]1,NS5B delta .21,-,IC50,-,-,Hepatitis C virus,0.6 µM
Nc1nc2cnc(N3CCC(Oc4cc(F)ccc4Br)CC3)nc2s1,Nonstructural protein 3,fluorescence,IC50,-,-,Hepatitis C virus,>100 µM
CCC(NC(=O)[C@H](CC1CCCCC1)NC(=O)[C@@H](NC(=O)[C@H](CC(C)C)NC(=O)[C@@H](CCC(=O)O)NC(=O)[C@H](CCC(=O)O)NC(=O)CCC(=O)O)[C@@H](C)CC)C(=O)C(F)(F)C(F)(F)F,HCV NS3 protease,-,Ki,-,-,Hepatitis C virus,0.081 µM
OCc1nnc(-c2ccc(N3CCC(Oc4cc(F)ccc4Br)CC3)nn2)o1,Nonstructural protein 3,fluorescence,IC50,-,-,Hepatitis C virus,>100 µM
CC[C@H](C)[C@H](NC(=O)[C@H](CC(C)C)NC(=O)[C@@H](CCC(=O)O)NC(=O)[C@H](CCC(=O)O)NC(=O)CCC(=O)O)C(=O)N[C@@H](CC1CCCCC1)C(=O)NC1(C(=O)C(=O)O)CC1,HCV NS3 protease,-,Ki,-,-,Hepatitis C virus,0.098 µM

The first 5 rows once more:

smiles | target | method | read-out | dose | strain or isolate | species | result
CCC[C@H](NC(=O)[C@H](CC1CCCCC1)NC(=O)[C@@H](NC(=O)[C@H](CC(C)C)NC(=O)[C@@H](CCC(=O)O)NC(=O)[C@H](CCC(=O)O)NC(=O)CCC(=O)O)[C@@H](C)CC)C(=O)NS(=O)(=O)c1ccccc1 | HCV NS3 protease | - | Ki | - | - | Hepatitis C virus | 0.0136 µM
C=CC1CC1(NC(=O)[C@@H]1C[C@@H](OC(=O)Nc2cc(C)ccc2-n2cccc2)CN1C(=O)[C@@H](NC(=O)OC(C)(C)C)C(C)(C)C)C(=O)NS(=O)(=O)C1CC1 | NS3/NS4A protease | - | IC50 | - | BMS/H77C/J416S | Hepatitis C virus | <0.1 µM
Nc1nc2c(ncn2[C@@H]2O[C@H](COP(=O)(O)OP(=O)(O)OP(=O)(O)O)[C@@H](O)[C@H]2O)c(=O)[nH]1 | NS5B delta .21 | - | IC50 | - | - | Hepatitis C virus | 7.9 µM
C=CC1CC1(NC(=O)[C@@H]1C[C@@H](OC(=O)Nc2ccccc2Oc2ccccc2)CN1C(=O)[C@@H](NC(=O)OC(C)(C)C)C(C)(C)C)C(=O)NS(=O)(=O)C1CC1 | NS3/NS4A protease | - | IC50 | - | BMS/H77C/J416S | Hepatitis C virus | <0.1 µM
Nc1nc2c(ccn2[C@@H]2O[C@H](COP(=O)(O)OP(=O)(O)OP(=O)(O)O)[C@@H](O)[C@@H]2O)c(=O)[nH]1 | NS5B delta .21 | - | IC50 | - | - | Hepatitis C virus | 6.6 µM